One protein from US20130190228 can be followed below.

The series deals with T1, EB peptide (entry blocker).
T1 chain: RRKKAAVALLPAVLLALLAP

B1: neuraminidase (NA) of PR/8 virus (protein)
chain: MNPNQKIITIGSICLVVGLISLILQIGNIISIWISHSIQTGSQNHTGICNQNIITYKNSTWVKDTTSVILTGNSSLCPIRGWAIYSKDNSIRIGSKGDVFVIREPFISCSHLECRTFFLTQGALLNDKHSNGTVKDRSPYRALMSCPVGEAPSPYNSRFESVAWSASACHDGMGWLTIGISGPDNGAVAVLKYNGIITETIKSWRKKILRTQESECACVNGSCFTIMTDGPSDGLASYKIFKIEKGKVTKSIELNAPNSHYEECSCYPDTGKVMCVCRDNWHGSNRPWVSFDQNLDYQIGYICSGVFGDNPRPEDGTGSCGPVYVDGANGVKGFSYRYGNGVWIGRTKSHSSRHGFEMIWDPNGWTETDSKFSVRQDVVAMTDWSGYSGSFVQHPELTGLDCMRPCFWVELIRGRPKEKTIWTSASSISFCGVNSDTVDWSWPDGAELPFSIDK
For the protein B1, the “neuraminidase activity assay (MUNANA substrate; 1-30 µM EB)” value was “the EB peptide did not inhibit NA activity”.
